PubChem BioAssay AID1259414 – Drosophila RNAi Screening Center | 2018
The screen tested about 24,000 reagents; this is a random part of those with a known target gene and a result. Over the whole deposit, about 1,210 (5%) are marked active. 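Inactive calls also include excluded dsRNAs with several or no targets, genes unexpressed in JW18, and well A1, regardless of score.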 Entries without a mark were called inactive. A plus sign joins genes that one reagent is predicted to hit.

Purpose: 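Genome-wide screen for host control of endosymbiont load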 (primary screen)
Cell system: Drosophila JW18 cells infected with Wolbachia
Reagent: long dsRNA against Drosophila genes, 0.25 µg dsRNA per well of a 384-well plate
Timing: 5 days
Challenge: cells persistently infected with Wolbachia before knock-down; no added drug
Read-out: 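Imaged fluorescence in situ signal for Wolbachia 23S rRNA per DAPI-counted host cell, given as a robust z-score within each plate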
Reading the numbers: Wolbachia per cell robust z: higher = more Wolbachia per host cell than the plate typical
Hit rule: 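Hit when robust z is 1.5 or more, or -1.5 or less, in at least two of three replicates; excludes dsRNAs with several or no targets, genes not expressed in JW18 and well A1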

Target gene	DRSC id	Wolbachia per cell robust z, rep 1	Wolbachia per cell robust z, rep 2	Wolbachia per cell robust z, rep 3
Arp1 (Actin-related protein 1)	DRSC14118	1.35 (active)	1.57	1.76
Arp1 (Actin-related protein 1)	DRSC26164	-0.529	-0.942	-0.146
Cpr62Bc (Cuticular protein 62Bc)	DRSC08545	-2.57	-0.255	-2.76
Cpr62Bc (Cuticular protein 62Bc)	DRSC26471	-1.96	-1.72	-0.838
Or47a (Odorant receptor 47a)	DRSC07491	0.975	0.285	-0.979
otp (orthopedia)	DRSC04050	0.939	0.598	-0.897
otp (orthopedia)	DRSC04707	0.915	1.45	1.14
CG32572	DRSC19525	-0.222	0.175	-0.183
CG32572	DRSC19526	-0.0543	-0.0664	0.00369
CG32572	DRSC30085	0.994	1.64	1.31
CG32271	DRSC08198	-0.433	-0.244	0.235
CG32271	DRSC27093	0.763	0.624	0.246
casp (caspar)	DRSC07164	0.593	-0.092	0.00177
Mal-A5 (Maltase A5)	DRSC07232	0.434	-0.578	-1.19
Mal-A5 (Maltase A5)	DRSC29506	0.193	-1.94	-0.663

Reagents listed above marked active (1):
Target gene	DRSC id	Wolbachia per cell robust z, rep 1	Wolbachia per cell robust z, rep 2	Wolbachia per cell robust z, rep 3
Arp1 (Actin-related protein 1)	DRSC14118	1.35 (active)	1.57	1.76

The list goes on.
Target gene	DRSC id	Wolbachia per cell robust z, rep 1	Wolbachia per cell robust z, rep 2	Wolbachia per cell robust z, rep 3
CG10841	DRSC14271	0.937	0.495	-1.59
CG10841	DRSC28142	-0.731	-1.04	-1.47
CG32829	DRSC00961	0.313	-6.35	0.00958
CG32829	DRSC22805	-0.531	-1.07	-2.22
CG14605	DRSC12549	0.16	0.623	1.03
CG14605	DRSC29195	1.01	-0.593	1.02
ng1 + ng2	DRSC23988	-0.642	-0.118	-0.389
CG2765	DRSC04315	1.57	0.965	-0.641
CG32081	DRSC09861	1.14	0.861	0.593
CG15919	DRSC06594	0.494	-1.2	-1.27
CG14841	DRSC14965	0.0969	-0.926	-0.627
CG14841	DRSC27235	-0.165	-1.14	-0.285
CG13403	DRSC19535	1.17	0.627	0.699
CG13403	DRSC26850	-0.292	0.413	0.794
cyp33 (cyclophilin-33)	DRSC07600	-1.33	-0.231	-0.735
shtd (shattered)	DRSC20166	-1.08	0.785	1.23
shtd (shattered)	DRSC27760	-0.0656	1.32	1.47
CG10405	DRSC14238	0.873	0.736	1.1
CG11791	DRSC14391	-0.357	-1.01	0.37
CG11791	DRSC29499	-1.96	0.598	1.02
h-cup (heineken-cup)	DRSC15973	-0.495	-0.176	0.69
h-cup (heineken-cup)	DRSC24713	0.138	2.92	-0.927
noi (noisette)	DRSC12383	-0.6	-0.851	0.53
noi (noisette)	DRSC26152	0.535	2.55	0.66
Orct (Organic cation transporter)	DRSC16777	1.03	0.772	-1.31
Orct (Organic cation transporter)	DRSC25574	1.08	1.56	0.176
CG12496	DRSC18602	0.654	0.724	0.192
CG12496	DRSC28576	0.149	-0.032	-0.971
CG30047	DRSC05340	-1.21	0.594	0.696
CG13049	DRSC09930	1.05	0.835	-1.62
CG13049	DRSC24850	-0.393	-0.116	0.293
